A mixed list of measured activities; the numbers were collected in NIAID ChemDB.

All rows: whole-cell or culture tests; agent: Candida tropicalis; endpoint: MIC

Lines come from different laboratories, so protocols vary.

Cc1ccccc1O ; read by: broth dilution ; value: 1050 µg/mL
O=C(/C=C/c1ccccc1)Oc1cccc2cccnc12 ; value: >100 µg/mL
C[C@@H]1[C@H](O)[C@@H](C)/C=C/C=C/CC/C=C/C=C/C=C/C=C/[C@H](O[C@@H]2O[C@H](C)[C@@H](O)[C@H](N)[C@@H]2O)C[C@@H]2O[C@](O)(C[C@@H](O)[C@H](O)CC[C@@H](O)C[C@@H](O)C[C@@H](O)CC(=O)O[C@H]1C)C[C@H](O)[C@H]2C(=O)O ; value: 0.5 µg/mL
COC(=O)c1cc(O)c(O)c(O)c1 ; strain or isolate: ATCC 750 ; read by: broth dilution ; value: 50 µg/mL
Oc1cc(Cl)cc2cc(Cl)cnc12 ; strain or isolate: ATCC 750 ; conditions: 24 h ; value: 3.1 µg/mL
Cc1cccc(O)c1 ; read by: broth dilution ; value: 850 µg/mL
Oc1cc(Cl)cc2cccnc12 ; strain or isolate: ATCC 750 ; conditions: 24 h ; value: 6.2 µg/mL
Cc1c(OCC(F)(F)F)ccnc1CS(=O)c1nc2ccccc2[nH]1 ; strain or isolate: Clinical isolates ; value: >128 µg/mL
Oc1c(Cl)cc(Cl)c2cccnc12 ; strain or isolate: ATCC 750 ; conditions: 24 h ; value: 3.1 µg/mL
c1ccc(-c2ccc(C(c3ccccc3)n3ccnc3)cc2)cc1 ; strain or isolate: 27 strains ; value: 8.93 µg/mL
Oc1cccc2cccnc12 ; value: 50 µg/mL
O=C(O)c1cc(O)c(O)c(O)c1 ; strain or isolate: ATCC 750 ; read by: broth dilution ; value: 100 µg/mL
C/C=C/C(=O)Oc1cccc2cccnc12 ; value: 50 µg/mL
CCCCCCCCCCCCCCCCCCCO ; strain or isolate: ATCC 750 ; read by: broth dilution ; value: 100 µg/mL
COc1cccc2ccc[n+](C)c12.[I-] ; value: >100 µg/mL
COc1cc(O)c2c(c1)C(=O)c1c(cc3c(c1O)-c1c(cc(C)c(C(=O)N[C@H](CO)C(=O)O)c1O)[C@H](O[C@@H]1O[C@H](C)[C@H](O)[C@H](O)[C@H]1O)[C@H]3O)C2=O ; strain or isolate: Kitasato 85-8 ; value: 1.6 µg/mL
CCCCCCCCOc1ccc(-c2ccc(C(=O)NC3CC(NCCN)CNC(=O)[C@@H]4[C@@H](O)[C@@H](C)CN4C(=O)[C@@H](CO)NC(=O)[C@H]([C@H](O)Cc4ccccc4)NC(=O)[C@@H]4C[C@@H](O)CN4C(=O)[C@H]([C@@H](C)O)NC3=O)cc2)cc1 ; strain or isolate: NEM_7114236 ; read by: resazurin ; value: 2.5 µg/mL
O=c1cc(-c2ccccc2)oc2cc(O)c(O)c(O)c12 ; strain or isolate: ATCC 200956 ; value: 52 µg/mL